Source: PubChem BioAssay AID1259414 (Drosophila RNAi Screening Center, 2018)
Purpose: 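Host factors increasing or decreasing Wolbachia levels in cultured fly cells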 (primary screen). Cell system: Drosophila JW18 cells infected with Wolbachia. Reagent: long dsRNA against Drosophila genes, 0.25 µg dsRNA per well of a 384-well plate. Time to read-out: 5 days. Conditions: cells persistently infected with Wolbachia before knock-down; no added drug. Measured: 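Imaged fluorescence in situ signal for Wolbachia 23S rRNA per DAPI-counted host cell, given as a robust z-score within each plate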. Scale: Wolbachia per cell robust z: higher = more Wolbachia per host cell than the plate typical. Active means: 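Active if absolute robust z reaches 1.5 in two or more of three replicates, leaving out multi- or no-target dsRNAs, genes unexpressed in JW18 and A1 wells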.
The screen tested about 24,000 reagents; shown is an unselected part of those that have a named target and a result. Over the whole deposit, about 1,210 (5%) were called active. 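Inactive calls also include excluded dsRNAs with several or no targets, genes unexpressed in JW18, and well A1, regardless of score.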 Unmarked entries are inactive. The numbers tell different reagents against one gene apart. No sequences are given here.

Target gene	reagent	Wolbachia per cell robust z, rep 1	Wolbachia per cell robust z, rep 2	Wolbachia per cell robust z, rep 3
Jhbp10 (Juvenile hormone binding protein 10)	1	0.166	1.17	0.693
clumsy	1	0.415	-0.212	-0.517
CG1024	1	1.7	-0.17	0.158
Mul1 (Mitochondrial E3 ubiquitin protein ligase 1)	1	0.444	-0.151	0.171
Mul1 (Mitochondrial E3 ubiquitin protein ligase 1)	2	-10.2	0.64	0.227
l(3)72Dr (lethal (3) 72Dr)	1	0.622	1.15	0.547
CG18735	1	-1.83	0.543	-5.08
CG18735	2	-0.0023	-1.12	-1.66
Ccdc39 (Coiled-coil domain containing protein 39)	1	0.653	0.574	0.475
Vha36-2 (Vacuolar H[+] ATPase 36kD subunit 2)	1	-0.336	0.614	-0.00233
Vha36-2 (Vacuolar H[+] ATPase 36kD subunit 2)	2	0.233	0.444	-1.08
ND-B14 (NADH dehydrogenase (ubiquinone) B14 subunit)	1	-0.679	-0.128	-3.95
ND-B14 (NADH dehydrogenase (ubiquinone) B14 subunit)	2	0.779	-0.267	0.859
CG3719	1	-0.635	-1.38	0.846
Sgf29 (SAGA-associated factor 29kDa)	1	0.427	0.665	0.287

Entries listed so far whose gene name starts with V or v (2):
Target gene	reagent	Wolbachia per cell robust z, rep 1	Wolbachia per cell robust z, rep 2	Wolbachia per cell robust z, rep 3
Vha36-2 (Vacuolar H[+] ATPase 36kD subunit 2)	1	-0.336	0.614	-0.00233
Vha36-2 (Vacuolar H[+] ATPase 36kD subunit 2)	2	0.233	0.444	-1.08

The results go on.
Target gene	reagent	Wolbachia per cell robust z, rep 1	Wolbachia per cell robust z, rep 2	Wolbachia per cell robust z, rep 3
CG3436	1	-6.4	0.771	0.835
Lcp65Ag3 (Larval cuticle protein)	1	0.0643	-1.91	-0.0455
Gr98c (Gustatory receptor 98c)	1	0.835	0.981	1.54
Gr98c (Gustatory receptor 98c)	2	-5.22	-4.09	-1.05
ppk (pickpocket)	1	0.301	1.36	1.08
ppk (pickpocket)	2	-1.3	-2.18	0.883
Sin1 (SAPK-interacting protein 1)	1	-0.795	-0.836	-0.664
snoRNA:U3:9B (ncRNA)	1	2.33	0.392	1.05
CG14174	1	0.0312	-0.365	-4.91
Tab2 (TAK1-associated binding protein 2)	1	0.241	-0.234	-2.4
Mgat2	1	0.313	-1.07	-0.334
Mgat2	2	-1.82	-0.438	-0.771
CG15712	1	0.751	1.09	0.734
